Measurements: PMC5884726 (Structure (London, England : 1993), 2018)

Legend:
Test in all cases: native MS
[1] = biological target: the molecule itself
[2] = biological target: (UreABC)3 urease apoprotein (Klebsiella aerogenes)
[3] = biological target: UreC (Klebsiella aerogenes)

B1: MBP-UreDFG (maltose binding protein-UreD fusion with UreF and UreG) (complex)
chain 1: MLPPLKKGWQATLDLRFHQAGGKTVLASAQHVGPLTVQRPFYPEEETCHLYLLHPPGGIVGGDELTISAHLAPGCHTLITMPGASKFYRSSGAQALVRQQLTLAPQATLEWLPQDAIFFPGANARLFTTFHLCASSRLLAWDLLCLGRPVIGETFSHGTLSNRLEVWVDNEPLLVERLHLQEGELSSIAERPWVGTLLCYPATDALLDGVRDALAPLGLYAGASLTDRLLTVRFLSDDNLICQRVMRDVWQFLRPHLTGKSPVLPRIWLT
chain 2: MSTAEQRLRLMQLASSNLPVGGYSWSQGLEWAVEAGWVLDVAAFERWQRRQMTEGFFTVDLPLFARLYRACEQGDIAAAQRWTAYLLACRETRELREEERNRGAAFARLLSDWQPDCPPPWRSLCQQSQLAGMAWLGVRWRIALPEMALSLGYSWIESAVMAGVKLVPFGQQAAQQLILRLCDHYAAEMPRALAAPDGDIGSATPLAAIASARHETQYSRLFRS
chain 3: not shown
With B1 the “stoichiometry N” value [1] was 2 and the “stoichiometry N” value [2] was 3 MBP-UreDFG per (UreABC)3.

B2: UreB (natural protein, Klebsiella aerogenes, UniProt P18315 1-106, looked up)
chain: MIPGEYHVKPGQIALNTGRATCRVVVENHGDRPIQVGSHYHFAEVNPALKFDRQQAAGYRLNIPAGTAVRFEPGQKREVELVAFAGHRAVFGFRGEVMGPLEVNDE
B2: binds [3].

B3: UreA (natural protein, Klebsiella aerogenes, UniProt P18316 1-100, looked up)
chain: MELTPREKDKLLLFTAALVAERRLARGLKLNYPESVALISAFIMEGARDGKSVASLMEEGRHVLTREQVMEGVPEMIPDIQVEATFPDGSKLVTVHNPII
B3: binds [3].
